Anti-infective test results gathered from many reports (values: NIAID ChemDB through PubChem).

All rows: growth or infection tests; organism: HIV-2; read-out: EC50

ECn: concentration that inhibits the pathogen or its effect by n%. An empty or dashed field is not shown. Neighbouring rows are from separate reports.

smiles	strain or isolate	cells	mutations	read by	value
Cc1cn([C@@H]2O[C@H](CO)C3(OS(=O)(=O)C=C3N)[C@H]2O[Si](C)(C)C(C)(C)C)c(=O)[nH]c1=O	ROD	MT-4	-	cytopathic effect / trypan blue	>100 µM
C=S(=C)(C)c1ccc(CN2CCC(Nc3nc(Nc4c(C)cc(C)cc4C)c4[nH]cnc4n3)CC2)cc1	ROD	MT-4	-	MTT	>34.64 µM
CC(C)CN(C[C@@H](O)[C@H](Cc1ccccc1)NC(=O)O[C@H]1CCOC1)S(=O)(=O)c1ccc(N)cc1	ROD	MT-2	-	MTT	0.37 µM
Nc1nc2c(ncn2CC(OCCF)OCP(=O)(O)O)c(=O)[nH]1	-	CEM	-	cytopathic effect	7.67 µg/mL
Cc1cc(C)c(Nc2nc(NC3CCN(Cc4cccc(F)c4)CC3)nc3nc[nH]c23)c(C)c1	ROD	MT-4	-	MTT	>30.68 µM
Cc1cn([C@H]2C[C@H](N=[N+]=[N-])[C@@H](CO)O2)c(=O)[nH]c1=O	MS	CEM + CEM-SS	-	cytopathic effect / XTT	0.003 µM
Cc1cc(C)cc(C(=O)c2cccnc2Nc2ccc(C(N)=O)cc2)c1	ROD	MT-4	-	MTT	>36.42 µM
C[C@H](CC1CNC2C(N)=NC(N)NC12)OCP(=O)(O)O	ROD	CEM	-	cytopathic effect / MTT	50 µg/mL
Cc1cn([C@H]2C[C@H](N=[N+]=[N-])[C@@H](CO)O2)c(=O)[nH]c1=O	D194	PBMC	-	p24	0.01 µM
Cc1cc(C)cc(C(=O)c2cccnc2Oc2ccc(C#N)cc2)c1	ROD	MT-4	-	MTT	>31.61 µM
Cc1cn([C@H]2C[C@H](N=[N+]=[N-])[C@@H](CN3C(=O)c4ccc(C(=O)OCC56CC7CC(CC(C7)C5)C6)cc4C3=O)O2)c(=O)[nH]c1=O	ROD	CEM + CEM TK-	-	syncytia	>160 µM
CC(C)c1nc(C(=O)NCc2ccc(F)cc2)c(O)c(=O)n1C	ROD	MT-4	-	MTT	0.086 µM
Cc1cn([C@H]2C[C@H](N=[N+]=[N-])[C@@H](CO)O2)c(=O)[nH]c1=O	ZY	CEM	-	cytopathic effect	0.03 µM
Cc1cc(C)cc(C(=O)c2cccnc2Oc2ccc(N)cc2)c1	ROD	MT-4	-	MTT	>123 µM
CC(C)(C)NC(=O)[C@@H]1C[C@@H]2CCCC[C@@H]2CN1CC(O)[C@H](Cc1ccccc1)NC(=O)[C@H](CC(N)=O)NC(=O)c1ccc2ccccc2n1.CS(=O)(=O)O	EHO	MT-4	-	MTT / p24	0.0058 µM
N#Cc1ccc(Nc2nc(Oc3c(Cl)cc(Cl)cc3Cl)ncc2[N+](=O)[O-])cc1	ROD	MT-4	-	MTT	>25 µM
CCN(C)c1nc(N)nc2c1ncn2CCOCP(=O)(O)O	ROD	CEM	-	cytopathic effect / MTT	0.2 µg/mL
O=c1[nH]cnc2c1ncn2C1CC[C@@H](CO)O1	ROD	MT-4	-	MTT	2.71 µM
O=C([O-])c1cn(CCO)c2ccc(Cc3ccccc3)cc2c1=O.O=C([O-])c1cn(CCO)c2ccc(Cc3ccccc3)cc2c1=O.[Mg+2]	ROD	MT-4	-	MTT	>36 µM
Cc1cn([C@H]2C[C@H](N=[N+]=[N-])[C@@H](CN3C(=O)c4c(F)c(F)c(F)c(F)c4C3=O)O2)c(=O)[nH]c1=O	ROD	CEM	-	syncytia	3.9 µM
Nc1nc(=O)n([C@@H]2CS[C@H](CO)O2)cc1F	ROD-2	PBMC	-	RT activity	0.0007 µM
CCS(=O)(=O)C[C@H]1O[C@@H](n2cc(C)c(=O)[nH]c2=O)C[C@@H]1N=[N+]=[N-]	ROD	MT-4	-	-	≥2.3 µg/mL
C[C@H](C[n+]1c[nH]c2c(NCCCC3CCCCC3)nc(N)nc21)OCP(=O)(O)O	ROD	CEM	-	cytopathic effect / MTT	2.5 ± 0.7 µg/mL
Cc1ccnc2c1NC(=O)c1cccnc1N2C1CC1	ROD	MT-4	-	MTT	>15 µM
Cc1cn([C@H]2C[C@H](N=[N+]=[N-])[C@@H](CO)O2)c(=O)[nH]c1=O	ROD	MT-4	-	MTT	0.011 µM
Cc1cn([C@@H]2O[C@H](CO[Si](C)(C)C(C)(C)C)C3(OS(=O)(=O)C=C3N)[C@H]2O[Si](C)(C)C(C)(C)C)c(=O)n(C)c1=O	ROD	MT-4	-	cytopathic effect / trypan blue	>200 µM
NC(=O)c1ncn([C@@H]2O[C@H](CO)[C@@H](O)[C@H]2O)n1	ROD	MT-4	-	cytopathic effect / trypan blue	>20 µg/mL
Cc1cn([C@H]2C[C@H](F)[C@@H](CO)O2)c(=O)[nH]c1=O	LAV-2	MT-4	-	cytopathic effect	0.015 µM
COc1ccc(S(=O)(=O)N(CC(C)C)C[C@@H](O)[C@H](Cc2ccccc2)NC(=O)O[C@H]2CO[C@H]3O[C@@H]4OCC[C@@H]4[C@H]32)cc1	ROD	MT-2	-	MTT	0.0004 µM
O=c1[nH]c(=O)n([C@H]2C[C@H](F)[C@@H](CO)O2)cc1Br	LAV-2	MT-4	-	cytopathic effect	0.54 µM
Cc1cn([C@@H]2O[C@H](CO[Si](C)(C)C(C)(C)C)C3(OS(=O)(=O)C=C3N)[C@H]2O[Si](C)(C)C(C)(C)C)c(=O)n(C)c1=O	ROD	CEM	-	cytopathic effect	>250 µM
C[C@H](CC1CNC2C1OC(N)CN2N)OCP(=O)(O)O	ROD	CEM	-	cytopathic effect / MTT	>100 µg/mL
Cc1cn([C@@H]2O[C@@H](COC(=O)c3ccccc3)C3(OS(=O)(=O)C=C3N)C2O[Si](C)(C)C(C)(C)C)c(=O)[nH]c1=O	ROD	MT-4	-	cytopathic effect / trypan blue	>100 µg/mL
Cc1cn([C@H]2C[C@H](N=[N+]=[N-])[C@@H](CO)O2)c(=O)[nH]c1=O	ROD	MT-4	-	cytopathic effect / MTT	0.0011 µM
CC(C)CN(C[C@@H](O)[C@H](Cc1ccccc1)NC(=O)O[C@H]1CCOC1)S(=O)(=O)c1ccc(N)cc1	EHO	MT-4	-	MTT / p24	0.3547 µM
C1CNCCNCCCN[C@H]([C@H]2CNCCCNCCNCCCN2)CNC1	ROD	MT-4	-	cytopathic effect / MTT	0.32 µg/mL
COc1ncccc1C(=O)c1cc(C)cc(C)c1	ROD	MT-4	-	MTT	>7.34 µM
Fc1cccc(F)c1[C@@H]1SCc2nc3ccccc3n21	ROD	MT-4	-	cytopathic effect	>86.7 µM
Cc1cc(C)c(Nc2nc(NC3CCN(Cc4ccccc4F)CC3)nc3nc[nH]c23)c(C)c1	ROD	MT-4	-	MTT	>23.61 µM
Cc1cn([C@@H]2O[C@H](CCC(C)C)C3(OS(=O)(=O)C=C3N)[C@H]2OC(=O)c2ccccc2)c(=O)[nH]c1=O	ROD	CEM	-	syncytia	>20 µg/mL
CC(C)(C)NC(=O)[C@@H]1C[C@@H]2CCCC[C@@H]2CN1C[C@@H](O)[C@H](Cc1ccccc1)NC(=O)[C@H](CC(N)=O)NC(=O)c1ccc2ccccc2n1	ROD	MT-2	-	MTT	0.003 µM
N#Cc1ccc(Nc2nc(Oc3c(Cl)cccc3Cl)ncc2[N+](=O)[O-])cc1	ROD	MT-4	-	MTT	>206 µM
C[C@H](Cn1cnc2c(N)ncnc21)OCP(=O)(O)O	ROD	CEM	-	syncytia	1.4 µM
C1CNCCNCCCN[C@@H]([C@H]2CNCCCNCCNCCCN2)CNC1	ROD	MT-4	-	cytopathic effect / MTT	0.62 µg/mL
C=CCn1c(=O)c(C)cn([C@@H]2O[C@H](CO[Si](C)(C)C(C)(C)C)C3(OS(=O)(=O)C=C3N)[C@H]2O[Si](C)(C)C(C)(C)C)c1=O	ROD	MT-4	-	cytopathic effect / trypan blue	>300 µM
CSC[C@H](NC(=O)COc1cccc2cnccc12)C(=O)N[C@@H](Cc1ccccc1)[C@H](O)C(=O)N1CSC(C)(C)[C@H]1C(=O)NC(C)(C)C	ROD	ATH8	-	cytopathic effect	0.13 µM
CC(C)=CCN1Cc2cccc3[nH]c(=S)n(c23)C[C@@H]1C	ROD	MT-4	-	cytopathic effect / MTT	>350 µM
Cc1cn([C@H]2C[C@H](N=[N+]=[N-])[C@@H](CO)O2)c(=O)[nH]c1=O	ROD	MT-4	-	-	0.00071 µg/mL
Nc1ccn([C@@H]2CS[C@H](CO)O2)c(=O)n1	ROD	MT-4	-	MTT	8.79 µM
CC(=O)c1ccc(C)cc1NC(C(N)=O)c1c(Cl)cccc1Cl	EHO	MT-4	RT-S102L E219D	cytopathic effect / MTT	28.5 µM
Cc1cc(C)c(Oc2ncc([N+](=O)[O-])c(Nc3ccc(C#N)cc3)n2)c(C)c1	ROD	MT-4	-	MTT	>252 µM
Nc1ccn([C@H]2CC[C@@H](CO)O2)c(=O)n1	ROD	MT-4	-	MTT	1.4 µM
Nc1cc(OCCOCP(=O)(O)O)nc(N)n1	ROD	CEM	-	syncytia	1.6 µM
CC(C)Nc1cccnc1N1CCN(C(=O)c2cc3cc(NS(C)(=O)=O)ccc3[nH]2)CC1	EHO	MT-4	RT-S102L	cytopathic effect / MTT	>47.3 µM
Cc1cn([C@@H]2O[C@H](CC3CCCCC3)C3(OS(=O)(=O)C=C3N)[C@H]2O[Si](C)(C)C(C)(C)C)c(=O)[nH]c1=O	ROD	MT-4	-	cytopathic effect / trypan blue	>4 µg/mL
Fc1cccc(F)c1C1SCc2nc3ccccc3n21	ROD	MT-4	-	cytopathic effect	>48.6 µM
CCc1c(Cc2cccc3ccccc23)nc(NCc2ccccc2)[nH]c1=O	ROD	MT-4	-	MTT	>34.65 µM
CC(C)CNc1nc(N)nc2c1ncn2CCOCP(=O)(O)O	ROD	MT-4	-	cytopathic effect / MTT	>0.16 µg/mL
Cc1cc(C)c(Nc2nc(NC3CCN(Cc4ccncc4)CC3)nc3nc[nH]c23)c(C)c1	ROD	MT-4	-	MTT	>141 µM
CCN[C@H]1CO[C@@H]2OC[C@H](OC(=O)N[C@@H](Cc3cc(F)cc(F)c3)[C@H](O)CN(CC(C)C)S(=O)(=O)c3ccc4nc(NC5CC5)sc4c3)[C@@H]21	EHO	MT-4	-	MTT / p24	0.00058 µM
Cc1cn([C@@H]2O[C@H](CC3CCCCC3)C3(OS(=O)(=O)C=C3N)[C@H]2OC(=O)c2ccccc2)c(=O)[nH]c1=O	ROD	MT-4	-	cytopathic effect / trypan blue	>4 µg/mL
Cc1cc(C)c(Nc2nc(NC3CCN(Cc4cccc(C#N)c4)CC3)nc3nc[nH]c23)c(C)c1	ROD	MT-4	-	MTT	>25.4 µM
CC(C)[C@H](NC(=O)c1ccc2ccccc2n1)C(=O)N[C@@H](Cc1ccccc1)[C@H](O)CN1CC[C@@H](OCc2ccncc2)C[C@H]1C(=O)NC(C)(C)C	ROD	CEMx174	-	p24 / ELISA / antigen	0.004 µM
Nc1nc(NC2CC2)c2ncn([C@H]3C=C[C@@H](CO)C3)c2n1	LAV-2	HeLa + HELA CD4+	-	plaque count	7.5 µM
CCc1cc(NCc2nc3c(Cl)ccc(Cl)c3o2)c(=O)[nH]c1C	EHO	MT-4	-	cytopathic effect / MTT	11.1 µM
Cc1cn([C@H]2C[C@H](N=[N+]=[N-])[C@@H](CN3C(=O)c4ccccc4C3=O)O2)c(=O)[nH]c1=O	ROD	CEM + CEM TK-	-	syncytia	>230 µM
CCCCN(CCCC)c1nc(Cc2cccc3ccccc23)c(C)c(=O)[nH]1	ROD	MT-4	-	MTT	≥120 µM
Cc1cn([C@H]2C[C@H](N=[N+]=[N-])[C@@H](CO)O2)c(=O)[nH]c1=O	ROD	CEM	-	syncytia	0.006 µM
Cc1cc(C)c(Nc2nc(NC3CCN(Cc4ccccn4)CC3)nc3nc[nH]c23)c(C)c1	ROD	MT-4	-	MTT	>114 µM
Nc1ncnc2c1ncn2CCOCP(=O)(O)O	ROD	CEM	-	syncytia	6.6 µM
O=c1[nH]c(=O)n([C@H]2C[C@H](F)[C@@H](CO)O2)cc1Cl	LAV-2	MT-4	-	cytopathic effect	0.69 µM
Cc1cc(C)cc(C(=O)c2cccnc2Oc2ccccc2)c1	ROD	MT-4	-	MTT	>20.7 µM
CCN(CC)c1nc(Cc2cccc3ccccc23)c(C(C)C)c(=O)[nH]1	ROD	MT-4	-	MTT	>183 µM
Cc1cc(C)cc(C(=O)c2cccnc2Nc2ccc(S(N)(=O)=O)cc2)c1	ROD	MT-4	-	MTT	>176 µM
Cc1cn([C@H]2C[C@H](N=[N+]=[N-])[C@@H](CO)O2)c(=O)[nH]c1=O	ROD	PBMC	-	RT activity	0.005 µM

For reference, 5 entries again:

smiles	strain or isolate	cells	mutations	read by	value
Cc1cn([C@H]2C[C@H](N=[N+]=[N-])[C@@H](CO)O2)c(=O)[nH]c1=O	ROD	MT-4	-	-	0.00071 µg/mL
Cc1cn([C@H]2C[C@H](N=[N+]=[N-])[C@@H](CO)O2)c(=O)[nH]c1=O	D194	PBMC	-	p24	0.01 µM
Cc1cc(C)cc(C(=O)c2cccnc2Oc2ccc(C#N)cc2)c1	ROD	MT-4	-	MTT	>31.61 µM
C[C@H](C[n+]1c[nH]c2c(NCCCC3CCCCC3)nc(N)nc21)OCP(=O)(O)O	ROD	CEM	-	cytopathic effect / MTT	2.5 ± 0.7 µg/mL
O=c1[nH]cnc2c1ncn2C1CC[C@@H](CO)O1	ROD	MT-4	-	MTT	2.71 µM